A mixed list of measured activities; the numbers were collected in NIAID ChemDB.

Shared fields: tests in culture; agent: Herpes simplex virus 1; read-out: inhibition

Inhibition is in % at the dose shown (toxicity tests: loss of growth or viability). Neighbouring rows are from separate reports.

{"compound": "CNc1nc2sc3c(c2c(=O)n1N)CCCC3", "cells": "VERO", "dose": "0.3 µg/mL", "read by": "plaque count", "value": "10%"}
{"compound": "Oc1cc(O)c2c(c1)O[C@H](c1ccc(O)c(O)c1)[C@H](O)C2", "strain or isolate": "17 syn +", "cells": "VERO", "dose": "200 µM", "read by": "MTT", "value": "57%"}
{"compound": "O=Nc1c(O)n(-c2ccc(F)cc2)c(=O)[nH]c1=O", "strain or isolate": "Leningrad/248/88", "cells": "VERO", "dose": "100 µg/mL", "read by": "cytopathic effect", "value": "65%"}
{"compound": "Cc1nn2c(=O)c3c4c(sc3nc2n1-c1ccccc1)CCCC4", "cells": "VERO", "dose": "0.3 µg/mL", "read by": "plaque count", "value": "0%"}
{"compound": "Nc1nc2c(ncn2COC(CO)CO)c(=O)[nH]1", "cells": "VERO", "dose": "5 µM", "value": "98%"}
{"compound": "CCOC(=O)C(C)(C)Oc1ccc(Cl)cc1", "strain or isolate": "TYLER", "cells": "HeLa", "dose": "400 µM", "read by": "virus yield", "value": "63%"}
{"compound": "O=c1c(O)c(-c2ccc(O)c(O)c2)oc2cc(O)cc(O)c12", "cells": "VERO", "dose": "60 µg/mL", "value": "65%"}
{"compound": "O=C(O)P(=O)(O)O", "cells": "GMK", "dose": "12.5 µg/mL", "read by": "plaque count", "value": "46.4%"}
{"compound": "NC(=S)N=Nc1c(O)[nH]c2ccccc12", "strain or isolate": "PH", "cells": "VERO", "dose": "40 µM", "read by": "plaque count", "value": "75%"}
{"compound": "CCOC(=O)CP(=O)(OC)OC[C@H]1O[C@@H](n2cc(I)c(=O)[nH]c2=O)C[C@@H]1O", "strain or isolate": "BRAND", "cells": "VERO", "dose": "1.9 µM", "read by": "cytopathic effect", "value": ">25%"}
{"compound": "NC(=S)N/N=C/c1ccccn1", "strain or isolate": "PH", "cells": "VERO", "dose": "40 µM", "read by": "plaque count", "value": "14%"}
{"compound": "CC(=O)N[C@H]1[C@@H](O[C@@H]2O[C@H](C[C@@H](O)[C@H]3O[C@@H](n4ccc(=O)[nH]c4=O)[C@H](O)[C@@H]3O)[C@H](O)[C@H](O)[C@H]2NC(=O)/C=C/CC(C)C)O[C@H](CO)[C@@H](O)[C@@H]1O", "cells": "BSC-1", "dose": "0.5 µg/mL", "read by": "plaque count", "value": "98.43%"}
{"compound": "O=C1c2cc3ccoc3cc2O[C@@H]2COc3cc4c(cc3[C@H]12)OCO4", "strain or isolate": "KOS", "cells": "VERO", "dose": "50 µg/mL", "read by": "plaque count", "value": "15.4%"}
{"compound": "O=C(O[C@@H]1[C@@H](c2c(O)cc3c(c2O)C[C@@H](OC(=O)c2cc(O)c(O)c(O)c2)[C@@H](c2ccc(O)c(O)c2)O3)c2c(O)cc(O)cc2O[C@@H]1c1ccc(O)c(O)c1)c1cc(O)c(O)c(O)c1", "strain or isolate": "17 syn +", "cells": "VERO", "dose": "20 µM", "read by": "MTT", "value": "47%"}
{"compound": "Nn1c(Nc2ccccc2)nc2sc3c(c2c1=O)CCC3", "cells": "VERO", "dose": "0.3 µg/mL", "read by": "plaque count", "value": "80%"}
{"compound": "O=C(O)P(=O)(O)O", "strain or isolate": "TK-", "cells": "VERO", "dose": "79.4 µM", "read by": "cytopathic effect", "value": ">25%"}
{"compound": "O=Nc1c(O)n(Cc2ccc(F)cc2)c(=O)[nH]c1=O", "strain or isolate": "Leningrad/248/88", "cells": "VERO", "dose": "100 µg/mL", "read by": "cytopathic effect", "value": "40%"}
{"compound": "Nc1nc2c(ncn2COCCO)c(=O)[nH]1", "cells": "VERO", "dose": "44 µM", "read by": "plaque count", "value": "92%"}
{"compound": "CCOC(=O)CP(=O)(OC)OC[C@H]1O[C@@H](n2cc(CCCl)c(=O)[nH]c2=O)C[C@@H]1O", "strain or isolate": "BRAND", "cells": "VERO", "dose": "6.6 µM", "read by": "cytopathic effect", "value": ">25%"}
{"compound": "NNC(N)=S", "strain or isolate": "PH", "cells": "VERO", "dose": "40 µM", "read by": "plaque count", "value": "95%"}
{"compound": "CCOC(=O)P(=O)(O)OC[C@H]1O[C@@H](n2cc(CCCl)c(=O)[nH]c2=O)C[C@@H]1O", "strain or isolate": "TK-", "cells": "VERO", "dose": "70.3 µM", "read by": "cytopathic effect", "value": ">25%"}
{"compound": "O=C(O)P(=O)(O)O", "strain or isolate": "90155", "cells": "SIRC", "dose": "100 µM", "read by": "plaque count", "value": "95%"}
{"compound": "O=C(O)c1cc(O)c(O)c(O)c1", "strain or isolate": "17 syn +", "cells": "VERO", "dose": "2 µM", "read by": "MTT", "value": "9%"}
{"compound": "O=Nc1c(O)n(CCc2ccc(F)cc2)c(=O)[nH]c1=O", "strain or isolate": "Leningrad/248/88", "cells": "VERO", "dose": "100 µg/mL", "read by": "cytopathic effect", "value": "40%"}
{"compound": "C[C@]12CC[C@H](O)CC1=CC[C@@H]1[C@@H]2CC[C@]2(C)C(=O)CC[C@@H]12", "cells": "VERO", "dose": "180 µM", "read by": "antigen", "value": "92.8%"}
{"compound": "COC(=O)[C@H]1[C@H](O)[C@@H](C)[C@@H](O)[C@](C)(O)/C=C(\\C)C2=C3C(=C(C)C(=O)c4c(O)c(c(C)c(OC(C)=O)c43)NC(=O)/C(C)=C/C=C\\[C@@H](C)C(O)[C@@H](C)[C@H]1O)OCO2", "cells": "CV", "dose": "13 µM", "read by": "plaque count", "value": "0%"}
{"compound": "CC1(C)S[C@@H]2[C@H](NC(=O)Cc3ccccc3)C(=O)N2[C@H]1C(=O)O", "cells": "VERO", "dose": "500 µM", "read by": "plaque count", "value": "4%"}
{"compound": "CCn1c(O)c(N=NC(N)=S)c2ccccc21", "strain or isolate": "PH", "cells": "VERO", "dose": "40 µM", "read by": "plaque count", "value": "99%"}